Assay results as given in patent publication US6881741B2 (ViroChem Pharma Inc., priority 2001, dated 2005).

Sequences of proteins named here, by UniProt entry; tags and fusion partners are left off. Residues count along the entry.
UniProt P26663, 2420-3010 limits assumed: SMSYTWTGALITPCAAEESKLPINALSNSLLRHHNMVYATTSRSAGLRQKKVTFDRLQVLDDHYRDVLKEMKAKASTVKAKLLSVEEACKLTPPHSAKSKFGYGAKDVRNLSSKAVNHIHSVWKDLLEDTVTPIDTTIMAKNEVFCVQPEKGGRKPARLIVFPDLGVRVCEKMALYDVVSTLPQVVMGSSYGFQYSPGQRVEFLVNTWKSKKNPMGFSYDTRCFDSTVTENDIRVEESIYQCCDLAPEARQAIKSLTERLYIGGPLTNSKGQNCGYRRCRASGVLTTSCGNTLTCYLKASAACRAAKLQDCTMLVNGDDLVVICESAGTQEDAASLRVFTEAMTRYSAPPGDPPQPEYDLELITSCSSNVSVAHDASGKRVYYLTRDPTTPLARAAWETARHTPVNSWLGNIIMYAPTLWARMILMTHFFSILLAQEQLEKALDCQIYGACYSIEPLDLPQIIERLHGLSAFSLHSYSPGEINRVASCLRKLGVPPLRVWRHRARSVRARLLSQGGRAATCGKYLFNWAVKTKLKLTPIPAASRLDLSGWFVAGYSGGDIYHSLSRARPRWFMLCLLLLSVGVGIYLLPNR

The molecules below were run against recombinant HCV NS5B (HCV RNA-dependent RNA polymerase) (Hepatitis C virus genotype 1b, UniProt P26663) (assay: In vitro HCV RdRp Flashplate scintillation proximity assay (STREP-FLASH ASSAY)). Conditions: not given.
Assay type: biochemical
With `CC1CC=C(C(=O)N(c2cc(-c3ccccc3)sc2C(=O)O)C(C)C)CC1` (stereo not shown) the IC50 was < 5 µM.

Same assay, conditions: read-out: IC50 (polymerase activity); HCV polymerase activity, list of compounds of Example 27
For `CC(CO)N(C(=O)c1ccc(Cl)cc1Cl)c1cc(-c2ccccc2)sc1C(=O)O` (stereo not shown), the IC50 was < 5 µM.
`CCCCCC(=O)N(CC)c1cc(-c2ccccc2)sc1C(=O)O` was tested, and the IC50 was < 5 µM.
With `CN(C(=O)c1ccccc1)c1cc(-c2ccccc2)sc1C(=O)O` the IC50 was > 20 µM.
With `CC1CCC(C(=O)N(CC2CCN(C(=O)OCc3ccccc3)CC2)c2cc(-c3ccccc3)sc2C(=O)O)CC1` (stereo not shown) the IC50 was < 5 µM.
With `CC(C)N(C(=O)c1ccc(Cl)cc1Cl)c1cc(Br)sc1C(=O)O` the IC50 was < 5 µM.
Molecule `CC(C(O[Si](C)(C)C(C)(C)C)c1ccccc1)N(C(=O)c1ccc(Cl)cc1Cl)c1cc(-c2ccccc2)sc1C(=O)O` (stereo not shown) has an IC50 of 5 to 20 µM.

Same assay, conditions: related polymerase activity (Example 27 list)
With `Cc1cc(S(=O)(=O)Nc2cc(C(C)(C)C)sc2C(=O)O)c(C)cc1Cl` the IC50 was 5 to 20 µM.
For `CC(=O)c1ccc(-c2cc(NS(=O)(=O)c3ccc(C)cc3C)c(C(=O)O)s2)s1`, the IC50 was < 5 µM.
With `Cc1ccccc1S(=O)(=O)Nc1cc(-c2ccc(C#N)s2)sc1C(=O)O` the IC50 was < 5 µM.
`Cc1ccccc1S(=O)(=O)Nc1cc(C#Cc2ccccc2)sc1C(=O)O` was tested, and the IC50 was < 5 µM.
`Cc1ccc(-c2cc(N(C(=O)c3ccc(Cl)cc3Cl)C(C)C)c(C(=O)O)s2)s1` was tested, and the IC50 was < 5 µM.
In the case of `Cc1ccccc1S(=O)(=O)Nc1cc(-c2ccc(F)c(Cl)c2)sc1C(=O)O` [Compound 91, 5-(3-CHLORO-4-FLUORO-PHENYL)-3-(TOLUENE-2-SULFONYLAMINO)-THIOPHENE-2-CARBOXYLIC ACID], the IC50 is reported as < 5 µM.
With `Cc1cc(S(=O)(=O)Nc2cc(-c3ccsc3)sc2C(=O)O)c(C)cc1Cl` the IC50 was < 5 µM.
Molecule `Cc1ccc2c(c1)C(=O)N=C2N(c1cc(-c2ccccc2)sc1C(=O)O)C(C)C` has an IC50 of 5 to 20 µM.
In the case of `CCOc1ccc(-c2cc(NS(=O)(=O)c3ccccc3C)c(C(=O)O)s2)cc1`, the IC50 is reported as < 5 µM.
In the case of `CC(=O)c1ccc(-c2cc(NS(=O)(=O)c3c(C)cccc3C)c(C(=O)O)s2)s1`, the IC50 is reported as < 5 µM.
In the case of `Cc1ccc(S(=O)(=O)Nc2cc(-c3cc4ccccc4o3)sc2C(=O)O)c(C)c1`, the IC50 is reported as < 5 µM.
For `CN(C(=O)c1ccc(C(F)(F)F)cc1F)c1cc(-c2ccccc2)sc1C(=O)O`, the IC50 was 5 to 20 µM.
Molecule `Cc1cc(S(=O)(=O)Nc2c(C(=O)O)sc3c2CSc2ccc(Cl)cc2-3)c(C)cc1Cl` has an IC50 of 5 to 20 µM.
`CN(C(=O)c1c(F)cc(F)cc1F)c1cc(-c2ccccc2)sc1C(=O)O` gave an IC50 of 5 to 20 µM.
In the case of `Cc1cc(S(=O)(=O)Nc2cc(-c3cc(C(F)(F)F)cc(C(F)(F)F)c3)sc2C(=O)O)c(C)cc1Cl`, the IC50 is reported as > 20 µM.
In the case of `CC(=O)c1ccc(-c2cc(N(C)C(=O)c3ccc(C)cc3)c(C(=O)O)s2)s1`, the IC50 is reported as < 5 µM.
In the case of `Cc1ccccc1S(=O)(=O)Nc1cc(-c2ccc(N=[N+]=[N-])cc2)sc1C(=O)O`, the IC50 is reported as < 5 µM.
Work on `Cc1ccc(S(=O)(=O)Nc2cc(-c3ccc(C(N)=O)cc3)sc2C(=O)O)c(C)c1` yielded an IC50 of 5 to 20 µM.
